Data reported in patent EP0597838B1, “VACCINE COMPOSITIONS” (NORTH AMERICAN VACCINE, INC., priority 1990, dated 1991).
Where a name gives a salt, the structure may show the parent alone.

System: hepatitis B surface antigen
Assay: Adsorption (complexation) of antigen to the immunoadjuvant

SMILES: CCCCCCCCCCCCCCCCCCOC(=O)C(N)Cc1ccc(O)cc1 (stereo not drawn) [Octadecyl Tyrosine, octadecyl tyrosine hydrochloride]
- % Adsorbed Antigen (10 µg octadecyl tyrosine): 53%
- % Adsorbed Antigen (50 µg octadecyl tyrosine): 60%
- % Adsorbed Antigen (100 µg octadecyl tyrosine): 70%
